Anti-infective test results gathered from many reports (values: NIAID ChemDB through PubChem).

Shared fields: tests in culture; agent: Mycobacterium tuberculosis

Blank or dashed fields: not listed here. Percent inhibition refers to the dose given; in toxicity tests it is the harm to the cells. A number after MIC or MFC names an inhibition level or a share of isolates. MIC bound: limit read from a one-dose screen. Conditions beyond the fields shown may differ between rows.

structure	conditions	read by	cells	dose	endpoint	changes	strain	result
S=C(S)NNc1ccccc1	-	-	-	-	MIC	-	ETA-R	>12.5 µg/mL
CCCCCCCCC=CCCCCCCCCNCc1ccc(O)c(OC)c1	-	-	-	-	MIC	-	H37Ra	>25 µg/mL
COc1c2c(c(OC)c3oc(=O)ccc13)OCC2	-	BACTEC	-	12.5 µg/mL	inhibition	-	H37Rv	19%
CN(C)CC=C(c1ccccc1)c1ccc(-c2ccc(Br)cc2)cc1	-	-	-	-	MIC	-	ALI 282	≤5 µg/mL
Cc1ccc(S(=O)(=O)Oc2ccc3oc4c(CO)ccc(NCCN(C)C)c4c(=O)c3c2)cc1	-	-	-	-	MIC	-	ETA-R	12.5 µg/mL
CC1(C)S[C@@H]2[C@H](NC(=O)[C@H](N)c3ccccc3)C(=O)N2[C@H]1C(=O)O	-	-	-	-	MIC	-	DLV	>92 µM
CCCCCCCCNC(CC(=O)OCC)c1cccc(Cl)c1	-	-	-	-	MIC	-	Sensitive strains	12.5 µg/mL
COc1ccc2oc(=S)n(-c3ccc(C(F)(F)F)cc3)c(=S)c2c1	21 d	-	-	-	MIC	-	My 331/88	32 µM
O=C(NC12CC3CC(CC(C3)C1)C2)C(=O)c1c[nH]c2ccc(Cl)cc12	-	resazurin	-	-	MIC bound	-	H37Rv	>6.25 µg/mL
CCCCCCCCCCCCNC(CC(=O)OCC)c1ccc([N+](=O)[O-])cc1	-	-	-	-	MIC	-	Sensitive strains	25 µg/mL
CC1COc2c(N3CCN(C)CC3)c(F)cc3c(=O)c(C(=O)O)cn1c23	-	broth dilution	-	-	MIC80	Rifampicin-resistant	19000	0.7 µM
COC(=O)C(C(=O)C(=O)Nc1c(Cl)cc([N+](=O)[O-])cc1Cl)c1csc(-n2nc(C3=CCCCC3)cc2-c2ccccc2)n1	-	resazurin	-	-	MIC bound	-	H37Rv	>6.25 µg/mL
CN(C)C/C=C(\c1ccc(O)cc1)c1ccc(-c2ccccc2)cc1	-	-	-	-	MIC	-	H37Rv	6 µg/mL
O=c1oc2ccc(F)cc2c(=S)n1-c1ccc(Cl)cc1	14 d	-	-	-	MIC	-	My 331/88	1 µM
O=C1O[C@H]2C(O)[C@@H](CO)O[C@H]2n2c1cc(=O)[nH]c2=O	-	BACTEC	-	12.5 µg/mL	inhibition	-	H37Rv	-19%
O=C(c1cccc(Cl)c1)N1CCN(c2ccc([N+](=O)[O-])cc2)CC1	-	turbidity	-	-	MIC90	-	Wild type without biotin	34.1 µM
O=c1c(O)c(-c2ccccc2)oc2ccccc12	-	-	-	-	MIC	-	H37Rv	>12.5 µg/mL
C[C@@H]1CN(c2c(F)c(N)c3c(=O)c(C(=O)O)cn(C4CC4)c3c2F)C[C@H](C)N1	-	-	-	-	MIC	-	900240	0.1 µg/mL
OC(c1cc(C23CC4CC(CC(C4)C2)C3)nc2c(Cl)cc(Cl)cc12)C1CCCCN1	-	resazurin	-	-	MIC bound	-	H37Rv	<6.25 µg/mL
CCCCCCCCCCCCCCCCNCc1ccc(Cl)cc1	-	-	-	-	MIC	-	Sensitive strains	25 µg/mL
CO[C@H]1/C=C/O[C@@]2(C)Oc3c(C)c(O)c4c(O)c(c(/C=N/N5CCN(C)CC5)c(O)c4c3C2=O)NC(=O)/C(C)=C\C=C\[C@H](C)[C@H](O)[C@@H](C)[C@@H](O)[C@@H](C)[C@H](OC(C)=O)[C@@H]1C	-	broth dilution	-	-	MIC80	Rifampicin-resistant	19000	>1.2 µM
CN(C)C/C=C(/c1ccccc1)c1ccc(-c2ccc(Br)cc2)cc1	-	-	-	-	MIC	-	ALI 536	≤5 µg/mL
COc1ccc2oc(=S)n(-c3ccc(Cl)cc3)c(=S)c2c1	14 d	-	-	-	MIC	-	My 331/88	8 µM
CCCCCCCCCCCCNCc1ccccc1O	-	-	-	-	MIC	-	H37Ra	<25 µg/mL
O=C1OCc2cc(N3CCN(C(=O)c4cccc(Cl)c4)CC3)ccc21	-	turbidity	-	-	MIC50	-	BioA overexpression strain	>50 µM
O=c1cc(-c2ccccc2)oc2cc(Br)ccc12	-	-	-	-	MIC	-	H37Rv	>12.5 µg/mL
CCOC(=O)CC(c1cccc([N+](=O)[O-])c1)N1CCCC1	-	-	-	-	MIC	-	Sensitive strains	25 µg/mL
Fc1cccc(-n2c(=S)oc3ccc(Cl)cc3c2=S)c1	21 d	-	-	-	MIC	-	My 331/88	4 µM
Cc1onc(-c2c(F)cccc2F)c1C(=O)N1CCN(c2cc3c(cc2F)c(=O)c(C(=O)O)cn3-c2ccc(F)cc2F)CC1	-	-	-	-	MIC	-	ATCC35801	10.01 µM
O=c1cc(-c2ccccc2)oc2ccc(Cl)cc12	-	-	-	12.5 µg/mL	inhibition	-	H37Rv	30%
Cc1cc(NC(=O)c2ccc(N)cc2)ccc1N=Nc1ccc(N=Nc2cc(S(=O)(=O)O)ccc2S(=O)(=O)O)c(C)c1	-	BACTEC	-	12.5 µg/mL	inhibition	-	H37Rv	-2%
O=C(O)c1cn(C2CC2)c2cc(N3CCC(O)(c4ccc(Cl)cc4)CC3)c([N+](=O)[O-])cc2c1=O	-	-	-	-	MIC	-	ATCC35801	0.42 µM
O=C(/C=C/c1ccccc1)c1ccc(Br)cc1O	-	-	-	12.5 µg/mL	inhibition	-	H37Rv	57%
CO[C@H]1/C=C/O[C@@]2(C)Oc3c(C)c(O)c4c(=O)c(c5oc6cc(N7CCN(CC(C)C)CC7)cc(=O)c6nc5c4c3=C2O)NC(=O)/C(C)=C\C=C\[C@H](C)[C@H](O)[C@@H](C)[C@@H](O)[C@@H](C)[C@H](OC(C)=O)[C@@H]1C	-	-	-	-	MIC	-	TN644	16 µg/mL
CC(=O)c1ccc(N2CCN(C(=O)c3cccnc3)CC2)cc1	-	turbidity	-	-	MIC50	-	BioA overexpression strain	>50 µM
CC1=Nc2ccccc2NC2(C1)C(C1COC(C)(C)O1)OC1OC(C)(C)OC12	-	BACTEC	-	-	MIC bound	-	H37Rv	>12.5 µg/mL
O=C(O)c1cn(-c2ccc(F)cc2F)c2cc(N3CCN(C(=O)C4COc5ccccc5O4)CC3)c(F)cc2c1=O	-	-	-	-	MIC	-	ATCC35801	5.53 µM
COCCNC(=O)c1ccc2c(c1)n(O)c(=O)c(C#N)[n+]2[O-]	-	BACTEC	-	-	MIC	-	H37Rv	≥12.5 µg/mL
O=C(/C=C/c1ccc(Cl)cc1)c1ccccc1O	-	-	-	-	MIC	-	H37Rv	>12.5 µg/mL
COc1cc2c(cc1OC)CN(c1nc3c(cc1[N+](=O)[O-])c(=O)c(C(=O)O)cn3C(C)(C)C)CC2	-	-	-	-	MIC	-	ATCC35801	0.86 µM
CN[C@@H]1[C@H](O[C@H]2[C@H](O[C@H]3[C@H](O)[C@@H](O)[C@H](N=C(N)N)[C@@H](O)[C@@H]3N=C(N)N)O[C@@H](C)[C@]2(O)C=O)O[C@@H](CO)[C@H](O)[C@H]1O	-	broth dilution	-	-	MIC80	Streptomycin-resistant	35820	>11 µM
COc1ccc2oc(=S)n(-c3cccc(Cl)c3)c(=S)c2c1	14 d	-	-	-	MIC	-	My 331/88	16 µM
CO[C@H]1/C=C/O[C@@]2(C)Oc3c(C)c(O)c4c(O)c(c(/C=N/N5CCN(C6CCCC6)CC5)c(O)c4c3C2=O)NC(=O)/C(C)=C\C=C\[C@H](C)[C@H](O)[C@@H](C)[C@@H](O)[C@@H](C)[C@H](O)[C@@H]1C	-	-	-	-	MIC	-	Isolate 900241 drug-susceptible	0.5 µg/mL
CO[C@H]1/C=C/O[C@@]2(C)Oc3c(C)c(O)c4c(O)c(c(/C=N/N5CCN(C6CCCC6)CC5)c(O)c4c3C2=O)NC(=O)/C(C)=C\C=C\[C@H](C)[C@H](O)[C@@H](C)[C@@H](O)[C@@H](C)[C@H](O)[C@@H]1C	-	-	-	-	MIC	-	H37Rv	0.03 µg/mL
CO[C@H]1/C=C/O[C@@]2(C)Oc3c(C)c(O)c4c(O)c(c(/C=N/N5CCN(C/C=C/c6ccccc6)CC5)c(O)c4c3C2=O)NC(=O)/C(C)=C\C=C\[C@H](C)[C@H](O)[C@@H](C)[C@@H](O)[C@@H](C)[C@H](OC(C)=O)[C@@H]1C	-	-	-	-	MIC	-	MTB31 (MDR)	>8 µg/mL
CCC(=O)N1CCN(c2ccc(C(C)=O)cc2)CC1	-	turbidity	-	-	MIC50	-	Wild type without biotin	>50 µM
COc1ccc(CC2C3=C(CCCC3)CCN2c2cc3c(cc2[N+](=O)[O-])c(=O)c(C(=O)O)cn3C(C)(C)C)cc1	-	-	-	-	MIC	-	ATCC35801	6.04 µM
Cc1ccc(C)c(N=Nc2c(N)nc(N)[nH]c2=O)c1	-	BACTEC	-	-	MIC bound	-	H37Rv	>12.5 µg/mL
CC1COc2c(N3CCN(C)CC3)c(F)cc3c(=O)c(C(=O)O)cn1c23	-	agar	-	-	MIC	-	07-10342	1 µg/mL
Cc1cc2c(=O)c3ccccc3oc2c(C(=O)O)c1C	-	BACTEC	-	-	MIC	-	H37Rv	≥12.5 µg/mL
COc1cc(C2=NN(C(=O)COc3ccc4ccccc4c3)[C@H](c3ccc(O)cc3)C2)c(C)cc1OCC(=O)O	-	-	-	6.25 µg/mL	inhibition	-	Isoniazid-resistant	58%
CCCCCc1cc(/C=C2/N=C(c3ccc[nH]3)C=C2OC)[nH]c1C	-	-	VERO	-	MIC	-	H37Rv	3.2 µg/mL
O=C(/C=C/c1ccccc1)c1ccccc1O	-	-	-	-	MIC	-	H37Rv	>12.5 µg/mL
S=c1oc2ccc(Br)cc2c(=S)n1-c1ccc(Cl)c(Cl)c1	21 d	-	-	-	MIC	-	My 331/88	2 µM
COc1ccc(-c2cc(=O)c3ccccc3o2)cc1	-	-	-	12.5 µg/mL	inhibition	-	H37Rv	26%
Cc1ccc(/C(=C\CN(C)C)c2ccc(-c3ccc(Br)cc3)cc2)cc1	-	-	-	-	MIC	-	H37Ra	79 µg/mL
N#CC1(OC2OC(CO)C(O)C(O)C2O)C=CC(OS(=O)(=O)O)C1	-	BACTEC	-	-	MIC bound	-	H37Rv	>12.5 µg/mL
O=C(O)c1cn(C2CC2)c2cc(N3CCN(C(=O)c4ccco4)CC3)c(F)cc2c1=O	-	-	-	-	MIC	-	ATCC35801	3.68 µM
Nc1ccc(C(=O)/C=C/c2ccccc2)cc1	-	-	-	-	MIC	-	H37Rv	>12.5 µg/mL
COC(=O)c1ccc(N2CCN(C(=O)c3cccc(Cl)c3)CC2)cc1	-	turbidity	-	-	MIC50	-	BioA underexpression strain	>50 µM
CCCCCCCCCCCCNC(CC(=O)OCC)c1ccccc1[N+](=O)[O-]	-	-	-	-	MIC	-	Sensitive strains	25 µg/mL
CC(=O)c1ccc(N2CCC(C(=O)c3ccc4c(c3)OCO4)CC2)cc1	-	turbidity	-	-	MIC50	-	BioA underexpression strain	>50 µM
CC(C)C(OC(=O)c1cc(NC(=S)c2ccccc2)ccc1Cl)C(C)C	-	BACTEC	-	-	MIC bound	-	H37Rv	>12.5 µg/mL
COc1ccc(/C=C/C(=O)c2cccc(I)c2O)cc1	-	-	-	-	MIC	-	H37Rv	>12.5 µg/mL
CC[C@@H](CO)NCCN[C@@H](CC)CO	-	broth dilution / resazurin	-	-	MIC	-	MDR8	64 µg/mL
C/C=C(\C)c1cc(=O)c2c(C)cc3c(c2o1)C(=O)c1c(O)c([C@H]2C[C@](C)(N(C)C)[C@H](OC(C)=O)[C@H](C)O2)cc([C@H]2C[C@@H](N(C)C)[C@H](OC(C)=O)[C@@H](C)O2)c1C3=O	-	BACTEC	-	12.8 µg/mL	inhibition	-	H37Rv	19%
CN(C)CC=C(c1ccc(Br)cc1)c1ccc(-c2ccc(Br)cc2)cc1	-	-	-	-	MIC	-	H37Rv	8.5 µg/mL
CCn1c(CC(C)C(=O)c2c(C)n(C)n(-c3ccccc3)c2=O)nc2ccccc2c1=O	-	BACTEC	-	-	MIC bound	-	H37Rv	>12.5 µg/mL
CN(C)C/C=C(\c1ccc(I)cc1)c1ccc(-c2ccc(Br)cc2)cc1	-	-	-	-	MIC	-	ALI 452	≤4 µg/mL
Cc1ccc2oc(=S)n(-c3ccc(Cl)cc3)c(=S)c2c1	21 d	-	-	-	MIC	-	My 331/88	1 µM
CCCCCCN(CCCCCC)/N=C/c1c2c(O)c3c(O)c(C)c4c(c3c1O)C(=O)[C@@](C)(O/C=C/[C@H](OC)[C@@H](C)[C@@H](OC(C)=O)[C@H](C)[C@H](O)[C@H](C)[C@@H](O)[C@@H](C)/C=C/C=C(/C)C(=O)N2)O4	-	BACTEC	-	12.5 µg/mL	inhibition	-	H37Rv	100%
CC(=O)Nc1ccc(/C=N/NC(N)=S)cc1	-	-	-	-	MIC	-	Isolate A drug-susceptible	15 µg/mL
Cc1cc(N=C2C=CC(=O)C=C2)ccc1O	-	BACTEC	-	-	MIC bound	-	H37Rv	>12.5 µg/mL
C[C@]1(COc2ccc(N3CCC(Oc4ccc(OC(F)(F)F)cc4)CC3)cc2)Cn2cc([N+](=O)[O-])nc2O1	-	-	-	-	MIC	-	Erdman	0.012 µg/mL
COC12CC(=O)C(C(C)=O)=C(O)C1(C)c1c(O)c(C)c(O)c(C(C)=O)c1O2	-	BACTEC	VERO	-	MIC	-	H37Rv	>12.5 µg/mL
C[C@]1(COc2ccc(N3CCC(Oc4ccc(OC(F)(F)F)cc4)CC3)cc2)Cn2cc([N+](=O)[O-])nc2O1	-	-	-	-	MIC90	-	18 strains (SM-resistant)	0.013 µg/mL